# Reference: publication PMC1361355, “Two Key Residues in EphrinB3 Are Critical for Its Use as an Alternative Receptor for Nipah Virus” (2006)
# Where two headings read alike, the source gives them in different places.
# Experiments:
# soluble EphB3 (EphB3-Fc) [1] = molecular target: soluble EphB3 (EphB3-Fc) (UniProt P54753); test: flow cytometry on cells; conditions: 10 μg/ml EphB3-Fc, read off a plot
# [2] = molecular target: human ephrinB3 stably expressed on CHO-pgsA745 cells (CHO-B3) (human) (UniProt Q15768)
# [3] = molecular target: human ephrinB1 stably expressed on CHO-pgsA745 cells (CHO-B1) (human) (UniProt P98172)
# soluble EphB3 (EphB3-Fc) [4] = molecular target: soluble EphB3 (EphB3-Fc) (UniProt P54753)
substance,measurement,setting,value
human ephrinB1 stably expressed on CHO-pgsA745 cells (CHO-B1) (from UniProt P98172) Y→L; M→W (G–H loop Y–M of ephrinB1; positions not printed),response,soluble EphB3 (EphB3-Fc) [1]; parent: est. 69,62%
soluble EphB3 (EphB3-Fc) (from UniProt P54753 34-559),percent of cells positive for binding,[2],47%
same,percent of cells positive for binding,[3],68%
human ephrinB3 stably expressed on CHO-pgsA745 cells (CHO-B3) (from UniProt Q15768) L124Y; W125M,response,soluble EphB3 (EphB3-Fc) [4],32%
human ephrinB2 stably expressed on CHO-pgsA745 cells (CHO-B2) (from UniProt P52799) L124Y; W125M,response,soluble EphB3 (EphB3-Fc) [1]; parent: est. 47,50%
